Test [1] relates to M. tb, strain H37Rv. Description: LORA minimum inhibitory concentration assay (hypoxic). In kind it is cell-based. The note with it: Mycobacterium tuberculosis.
Test [2] concerns M. tb, strain H37Rv. Briefly: MABA minimum inhibitory concentration assay (aerobic). In kind it is cell-based. To be noted: Mycobacterium tuberculosis, read-out: MIC MABA, aerobic.

Each structure is given as a SMILES string. In brackets after ≈: the same amount, converted by molar mass.

In the case of `O=[N+]([O-])c1cn2c(n1)OC(COc1ccc(-c3ccc(F)cc3)nc1)CC2` (stereo not drawn), the MIC (in general, the smallest concentration in the dilution series that meets the test's criterion for growth inhibition) turned out to be 2.4 µM (≈ 0.889 µg/mL) in the test on M. tb, strain H37Rv [1] and 0.23 µM (≈ 0.0852 µg/mL) in the test with M. tb, strain H37Rv [2].

With `O=[N+]([O-])c1cn2c(n1)O[C@H](COc1ccc(-c3ccc(F)cc3)nc1)CC2`, the minimum inhibitory concentration (MIC) was 3.9 µM (≈ 1.44 µg/mL) against M. tb, strain H37Rv [1] and 1.1 µM (≈ 0.407 µg/mL) in the test on M. tb, strain H37Rv [2].

On to `O=[N+]([O-])c1cn2c(n1)O[C@@H](COc1ccc(-c3ccc(F)cc3)nc1)CC2` [compound 79, (7R)-7-({[6-(4-Fluorophenyl)pyridin-3-yl]oxy}methyl)-2-nitro-6,7-dihydro-5H-imidazo[2,1-b][1,3]oxazine], for which the MIC against M. tb, strain H37Rv [1] worked out at 3.2 µM (≈ 1.19 µg/mL); with M. tb, strain H37Rv [2], 0.11 µM (≈ 0.0407 µg/mL).

The values are drawn from article PMC7722354, “7-Substituted 2-Nitro-5,6-dihydroimidazo[2,1-b][1,3]oxazines: Novel Antitubercular Agents Lead to a New Preclinical Candidate for Visceral Leishmaniasis” (Journal of Medicinal Chemistry, 2017).
